A mixed list of measured activities; the numbers were collected in NIAID ChemDB.

All rows: host cell toxicity; cell line: A549; measure: CC50

An empty or dashed field is not shown. Rows are shuffled and stem from different studies. CCn is the concentration with n% toxicity to the cells.

compound	read by	value
Cn1[se]c2ccccc2c1=O	visual reading	2.5 µg/mL
COc1cc([C@@H]2c3cc4c(cc3[C@H](O)[C@H]3COC(=O)[C@H]23)OCO4)cc(OC)c1OC	-	0.012 µM
O=c1c2ccccc2[se]n1CO	visual reading	4 µg/mL
CCCCCCCCCCCCCCCC[N+](C)(C)Cc1ccccc1	MTT	0.63 µM
Nc1ccn([C@@H]2C[C@@H](O)[C@H](CO)O2)c(=O)n1	-	>100 µM
O=c1c2ccccc2[se]n1-c1ccccc1	MTT	15 µg/mL
C1=C(c2nc(-c3ccccn3)no2)c2ccccc2C12CCN(CC1CCCO1)CC2	resazurin	56.3 µM
CC(=O)c1cc([N+](=O)[O-])c(N2CCC(C)CC2)s1	resazurin	65 µg/mL
CC(C)=CCC[C@@H](C)[C@@H]1CC[C@]2(C)C3=C(CC[C@@]12C)[C@@]1(C)CC[C@H](O)C(C)(C)[C@@H]1CC3	sulforhodamine / absorbance	>50 µM
O=C1O[C@@H]2[C@@H](OC(=O)c3cc(O)c(O)c(O)c3-c3c1cc(O)c(O)c3O)[C@@H](O)O[C@@H]1COC(=O)c3cc(O)c(O)c(O)c3-c3c(O)c(O)c4oc(=O)c5c(c(O)c(O)c6oc(=O)c3c4c65)-c3c(cc(O)c(O)c3O)C(=O)O[C@@H]21	XTT	319 µM
O=c1cc(-c2ccc(Oc3c(O)cc4oc(-c5ccc(O)cc5)cc(=O)c4c3O)cc2)oc2cc(O)cc(O)c12	neutral red	27 µg/mL
CC(C)(C)CC(C)(C)c1ccc(OCCOP(=O)([O-])OCC[N+](C)(C)Cc2ccccc2)cc1	MTT	>100 µM
COc1ccc(-c2noc(C3=CC4(CCN(C(=O)[C@H]5CCCN5C)CC4)c4ccccc43)n2)cc1	resazurin	4 µM
O=c1c2ccccc2[se]n1-c1cc(Cl)ccn1	-	100 µg/mL
C=CCOC(=O)O[C@@H]1COC(Oc2c3c(c(-c4ccc5c(c4)OCO5)c4cc(OC)c(OC)cc24)C(=O)OC3)[C@H](OC(=O)OCC=C)[C@H]1O	absorbance	0.7383 µM
C/C(=C\C=C\C(C)[C@H]1CC[C@@]2(C)[C@@H]3CC[C@H]4C(C)(C)C(=O)CC[C@]4(C)C3=CC[C@]12C)C(=O)O	sulforhodamine / absorbance	>50 µM
Cc1cc(NS(=O)(=O)c2ccc(N3C(=O)CSC3c3ccc(F)cc3)cc2)no1	MTT	>100 µg/mL
CCSc1nnc(-c2ccc(F)cc2)o1	MTT	>100 µg/mL
CC(C)(C)n1[se]c2ncccc2c1=O	-	10 µg/mL
C1=C(c2nc(-c3ccccc3)no2)c2ccccc2C12CCN(CC1CC1)CC2	resazurin	21 µM
CO[C@H]1/C=C/O[C@@]2(C)Oc3c(C)c(O)c4c(O)c(c(/C=N/N5CCN(C)CC5)c(O)c4c3C2=O)NC(=O)/C(C)=C\C=C\[C@H](C)[C@H](O)[C@@H](C)[C@@H](O)[C@@H](C)[C@H](OC(C)=O)[C@@H]1C	resazurin	>100 µg/mL
O=c1[nH][se]c2ccccc12	-	3 µg/mL
Cc1cc(NS(=O)(=O)c2ccc(N3C(=O)CSC3c3ccc(Cl)cc3)cc2)no1	MTT	>100 µg/mL
CCCCCCCCCCCCCCCCOP(=O)([O-])OCCC[N+](C)(C)Cc1ccccc1	MTT	57.6 µM
COc1ccc(-c2noc(C3=CC4(CCN(CC5CCCO5)CC4)c4ccccc43)n2)cc1	resazurin	68 µM
Cn1[se]c2ncccc2c1=O	-	8.5 µg/mL
CC(C)(C)CC(C)(C)c1ccc(OCCOP(=O)([O-])OCCC[N+](C)(C)Cc2ccccc2)cc1	MTT	>100 µM
COc1cc([C@@H]2c3cc4c(cc3[C@H](OC(C)=O)[C@@H]3COC(=O)[C@H]23)OCO4)cc2c1OCCO2	-	2.2 µM
CCCNC(=O)Oc1ccccc1[Se][Se]c1ccccc1OC(=O)NCCC	MTT	15 µg/mL
COC(=O)[C@@H]1[C@H](c2cc(OC)c(OC(C)=O)c(OC(C)=O)c2)c2cc3c(cc2C2=NOC[C@@H]21)OCO3	-	20 µM
COc1ccc(-c2cc(=O)c3c(OC)cc(OC)c([C@H]4C(=O)c5c(OC)cc(OC)cc5O[C@@H]4c4ccc(OC)cc4)c3o2)cc1	visual reading	47 µg/mL
Nc1ccn([C@@H]2C[C@@H](O)[C@H](CO)O2)c(=O)n1	-	>100 µM
Cc1noc(C2=CC3(CCN(CC4CCCO4)CC3)c3ccccc32)n1	resazurin	>200 µM
CC1CCN(c2sc([N+](=O)[O-])cc2[N+](=O)[O-])CC1	resazurin	4 µg/mL
O=c1cc(-c2ccc(O)c(-c3c(O)cc(O)c4c(=O)cc(-c5ccc(O)cc5)oc34)c2)oc2cc(O)cc(O)c12	visual reading	18 µg/mL
Oc1ccccc1[Se][Se]c1ccccc1O	MTT	7.5 µg/mL
COc1cc2c(cc1OC)-c1c3c(cc4ccnc(c14)C2=O)OCO3	sulforhodamine / absorbance	36.7 µM
Clc1ccc(-c2nc(SCC3CC3)n[nH]2)cc1	MTT	>100 µg/mL
O=c1c2ccccc2[se]n1C1C2CC3CC(C2)CC1C3	visual reading	78 µg/mL
C1=C(c2nc(-c3ccncc3)no2)c2ccccc2C12CCN(CC1CCCO1)CC2	resazurin	75.7 µM
CC1CCN(c2ccc([N+](=O)[O-])s2)CC1	resazurin	21 µg/mL
COc1cc([C@@H]2c3cc4c(cc3[C@H](OC(C)=O)[C@@H]3COC(=O)[C@H]23)OCO4)cc2c1OCO2	-	2.27 µM
O=C(Nc1cccc(Cl)c1)n1[se]c2ccccc2c1=O	visual reading	4.3 µg/mL
COc1cc2c(OC3OCC(O)(CO)C3OC3OCC(O)C(O)C3O)c3c(c(-c4cc5c(cc4O)OCO5)c2cc1OC)C(=O)OC3	absorbance	>50 µM
Cc1cc(NS(=O)(=O)c2ccc(N3C(=O)CSC3c3ccc(C(F)(F)F)cc3)cc2)no1	MTT	>100 µg/mL
O=C(O)C[C@H]1C(=O)O[C@H]2[C@H](OC(=O)c3cc(O)c(O)c(O)c3)[C@@H](OC(=O)c3cc(O)c(O)c4c3[C@H]1[C@H](O)C(=O)O4)[C@H](OC(=O)c1cc(O)c(O)c(O)c1)O[C@@H]2COC(=O)c1cc(O)c(O)c(O)c1	XTT	331 µM
O=c1c2cc(O)ccc2oc2cc(O)cc(O)c12	sulforhodamine / absorbance	49.01 µM
C(=C1/CCCN(c2ccc(C3=NCCN3)cc2)C1)/c1ccc(C2=NCCN2)cc1	-	47.6 µg/mL
COc1cc([C@@H]2c3cc4c(cc3[C@H](OC(C)=O)[C@@H]3COC(=O)[C@@H]23)OCO4)cc2nc3cc(C)c(C)cc3nc12	-	4.8 µM
O=C1c2c(O)cc(O)cc2O[C@@H](c2ccc(O)cc2)[C@@H]1c1c(O)cc(O)c2c(=O)cc(-c3ccc(O)c(O)c3)oc12	sulforhodamine / absorbance	>50 µM
N=C(N)c1ccc(NC(=O)CCCC(=O)Nc2ccc(C(=N)N)cc2)cc1	-	>0.13 µg/mL
O=c1[nH]c(=O)n([C@H]2C[C@H](O)[C@@H](CO)O2)cc1/C=C/Br	-	1795 µM
O=C1c2c(O)cc(O)cc2O[C@H](c2ccc(O)cc2)[C@H]1c1c(O)cc(O)c2c(=O)cc(-c3ccc(O)c(O)c3)oc12	sulforhodamine / absorbance	>50 µM
c1cc(N2CCCN(c3ccc(/C(=N\C4=NCCCN4)NC4=NCCCN4)cc3)CC2)ccc1/C(=N/C1=NCCCN1)NC1=NCCCN1	-	173.7 µg/mL
COc1ccc(-c2noc(C3=CC4(CCN(C(=O)C5CCCO5)CC4)c4ccccc43)n2)cc1	resazurin	37 µM
CCCCSc1n[nH]c(-c2ccccc2C)n1	MTT	>100 µg/mL

7 of the rows above, restated:

compound,read by,value
COc1ccc(-c2cc(=O)c3c(OC)cc(OC)c([C@H]4C(=O)c5c(OC)cc(OC)cc5O[C@@H]4c4ccc(OC)cc4)c3o2)cc1,visual reading,47 µg/mL
Cn1[se]c2ncccc2c1=O,-,8.5 µg/mL
C1=C(c2nc(-c3ccncc3)no2)c2ccccc2C12CCN(CC1CCCO1)CC2,resazurin,75.7 µM
O=c1c2ccccc2[se]n1-c1ccccc1,MTT,15 µg/mL
Oc1ccccc1[Se][Se]c1ccccc1O,MTT,7.5 µg/mL
C=CCOC(=O)O[C@@H]1COC(Oc2c3c(c(-c4ccc5c(c4)OCO5)c4cc(OC)c(OC)cc24)C(=O)OC3)[C@H](OC(=O)OCC=C)[C@H]1O,absorbance,0.7383 µM
Cc1cc(NS(=O)(=O)c2ccc(N3C(=O)CSC3c3ccc(F)cc3)cc2)no1,MTT,>100 µg/mL